Experimental data as given in article PMC12261321, “Inhibitors of the Bacterioferritin Ferredoxin Complex Dysregulate Iron Homeostasis and Kill and Biofilm-Embedded Cells” (ACS Infectious Diseases, 2025).
In brackets after ≈: the same amount, converted by molar mass.

Protein sequences, listed by entry. Tags and fused reporters are not part of them.
UniProt Q9HY79, whole entry: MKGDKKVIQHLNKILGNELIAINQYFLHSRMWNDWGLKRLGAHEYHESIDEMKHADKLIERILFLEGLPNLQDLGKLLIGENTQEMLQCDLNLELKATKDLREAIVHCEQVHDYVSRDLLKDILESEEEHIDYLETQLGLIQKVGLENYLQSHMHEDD

Columns and labels:
P. aeruginosa PAO1 [1] = assay: Compound intracellular accumulation in P. aeruginosa PAO1; type: cell-based
recombinant Pa BfrB = recombinant Pa BfrB (Pseudomonas aeruginosa, UniProt Q9HY79); assay: Dissociation constant (Kd), fluorescence quenching titration of apo Pa BfrB; type: binding, P. aeruginosa
P. aeruginosa PAO1 [2] = assay: Half maximal inhibitory concentration (IC50), planktonic growth (CFU/mL); type: cell-based; details: for IC50: read-out: IC50, P. aeruginosa PAO1, planktonic cells, M63 media, 18 h
[3] = test system: P. aeruginosa PAO1 biofilm; assay: Pellicle biofilm assay, % survival of biofilm cells; type: cell-based; details: 24 h
A. baumannii 5075 [4] = assay: Compound intracellular accumulation in A. baumannii 5075; type: cell-based
A. baumannii ATCC 17978 = assay: MIC, broth microdilution in M63 media; type: cell-based; details: 20 h
A. baumannii ATCC 19606 = assay: MIC, broth microdilution in M63 media; type: cell-based; details: 20 h
A. baumannii 5075 [5] = assay: MIC, broth microdilution in M63 media; type: cell-based; details: 20 h
A. baumannii 5075 [6] = assay: Siderophores secreted by A. baumannii (CAS assay); type: cell-based; details: 5075, 20 h, M63 without citrate; compounds 40 μM, SB-17–140 80 μM
[7] = cells treated with 30 µM compound
[8] = biofilm challenged with 50 µM compound
[9] = ‡ treatment with 15 µM compound
[10] = biofilm challenged with 30 µM compound

Structure (SMILES)	Intracell. Accum, P. aeruginosa PAO1 (P. aeruginosa PAO1 [1]; [7])	Kd (recombinant Pa BfrB)	IC50 (P. aeruginosa PAO1 [2])	% Survival Biofilm, P. aeruginosa PAO1 [3, 8]	Intracell. Accum, A. baumannii 5075 (A. baumannii 5075 [4]; [7])	MIC, A. baumannii 17978 (A. baumannii ATCC 17978)	MIC, A. baumannii 19606 (A. baumannii ATCC 19606)	MIC, A. baumannii 5075 (A. baumannii 5075 [5])	siderophore secretion, ΔA 630 nm normalized to OD600 (A. baumannii 5075 [6])	Intracell. Accum, P. aeruginosa PAO1 (P. aeruginosa PAO1 [1]; [9])	% Survival Biofilm, P. aeruginosa PAO1 [3, 10]	Intracell. Accum, A. baumannii 5075 (A. baumannii 5075 [4]; [9])	IC50, P. aeruginosa PAO1 (P. aeruginosa PAO1 [2]; planktonic cells, M63 media, 18 h)
O=C1NC(=O)c2c(NCc3cc(F)cc(F)c3O)cccc21	23 ± 8 nmol/1012 CFU	14 µM	71 µM	84 ± 11%	117 ± 21 nmol/1012 CFU	100 µM (≈ 30.4 µg/mL)	50 µM (≈ 15.2 µg/mL)	50 µM (≈ 15.2 µg/mL)					
O=C1NC(=O)c2c(NCc3ccc(Cl)cc3O)cccc21	78 ± 3 nmol/1012 CFU	24 µM	33 µM	12 ± 6%		50 µM (≈ 15.1 µg/mL)	50 µM (≈ 15.1 µg/mL)	50 µM (≈ 15.1 µg/mL)	secrete significantly higher levels of siderophore				
O=C1NC(=O)c2c(NCc3cc(Cl)cc(Cl)c3O)cccc21		8 µM	26 µM			40 µM (≈ 13.5 µg/mL)	40 µM (≈ 13.5 µg/mL)	40 µM (≈ 13.5 µg/mL)		110 ± 20 nmol/1012 CFU	41 ± 4%	358 ± 92 nmol/1012 CFU	
Cc1ccc(O)c(CNc2cccc3c2C(=O)NC3=O)c1	87 ± 15 nmol/1012 CFU		107 µM	63 ± 3%	148 ± 44 nmol/1012 CFU	100 µM (≈ 28.2 µg/mL)	80 µM (≈ 22.6 µg/mL)	100 µM (≈ 28.2 µg/mL)					
O=C1NC(=O)c2c(NCc3cccc(O)c3O)cccc21		69 µM		Not active	31 ± 11 nmol/1012 CFU	200 µM (≈ 56.9 µg/mL)	200 µM (≈ 56.9 µg/mL)	200 µM (≈ 56.9 µg/mL)					Not active
O=C1NC(=O)c2c(NCc3c(O)ccc(Br)c3F)cccc21		6 µM	13 µM			30 µM (≈ 11 µg/mL)	30 µM (≈ 11 µg/mL)	30 µM (≈ 11 µg/mL)			54.5 ± 0.7%		
O=C1NC(=O)c2c(NCc3ccc(F)cc3O)cccc21	25 ± 3 nmol/1012 CFU	24 µM	101 µM	61 ± 16%	248 ± 86 nmol/1012 CFU	150 µM (≈ 42.9 µg/mL)	75 µM (≈ 21.5 µg/mL)	150 µM (≈ 42.9 µg/mL)					
